Pooled drug test results. Numbers come from NIAID ChemDB, via PubChem.

All rows: growth or infection tests; species: Hepatitis B virus; measure: EC50

Conditions beyond the fields shown may differ between rows. ECn: concentration that inhibits the pathogen or its effect by n%. Two numbers with a dash give a range or band.

{"structure": "CC(C)Oc1ccc(-n2c(C(=O)NCc3ccccc3)c3n(c2=O)CCN([C@H](c2ccc(Br)c(Cl)c2)C(F)(F)F)C3)cc1", "method": "PCR", "cells": "HepG2.117", "value": ">5 µM"}
{"structure": "CNC(=O)C(=O)N1C[C@@H]2C(NS(=O)(=O)c3cn(C)c(C(=O)Nc4cc(F)c(F)c(F)c4)c3F)[C@@H]2C1", "method": "PCR", "cells": "HepAD38 cells", "value": "<0.1 µM"}
{"structure": "COc1cc(C(=O)NC2CC3(C2)CN(c2nc4cc(Cl)ccc4o2)C3)ccn1", "method": "antigen / luminescence", "cells": "Primary human hepatocytes (PHH)", "value": "6.89 µM"}
{"structure": "Cn1nc2cc(S(=O)(=O)NCC3CC3)ccc2c1C(=O)Nc1ccc(F)c(Cl)c1", "method": "PCR", "cells": "HepAD38", "value": "100–1000 µM"}
{"structure": "CN1CC(c2ccn(C)n2)Cn2nc3c(c2C1=O)CN(C(=O)Nc1ccc(F)c(Cl)c1)CC3", "method": "fluorescence", "cells": "HepG2.2.15", "value": "160 µM"}
{"structure": "c1coc(-c2ccc3ncnc(Nc4ccc(N5CCOCC5)cc4)c3c2)c1", "method": "replicon", "cells": "HUH 9B", "value": "<1 µM"}
{"structure": "O=C(NCc1ccccc1-c1ncc[nH]1)c1c2n(c(=O)n1-c1ccc(OC3CC3)cc1)CCN(C(=O)c1ccc(Br)c(Cl)c1)C2", "method": "PCR", "cells": "HepG2.117", "value": "<0.1 µM"}
{"structure": "Cc1cnn(-c2ccc(-n3c(=O)c4c(n5ncc(Cc6ccccc6)c35)CN(C(=O)c3ccc(Br)c(C(F)(F)F)c3)[C@@H](C)C4)cc2)n1", "method": "luminescence", "cells": "HepG2.117", "value": "0.05–0.5 µM"}
{"structure": "N#Cc1ccc(-c2nc(Nc3ccc(N4CCOCC4)cc3)c3ccccc3n2)cc1", "method": "replicon", "cells": "HUH 9B", "value": "1–5 µM"}
{"structure": "O=C(CN(c1cc(C(F)(F)F)ccc1Cl)S(=O)(=O)c1ccccc1)NCc1ccncc1", "method": "visual reading / absorbance", "cells": "HepG2-NTCPsec+", "strain or isolate": "Genotype D", "value": "0.5 µM"}
{"structure": "Cn1nc2cc(N(CCO)S(=O)(=O)c3cnn(-c4cc(OCC5CC5)ccn4)c3)ccc2c1C(=O)Nc1ccc(F)c(Cl)c1", "method": "PCR", "cells": "HepAD38", "value": ">1000 µM"}
{"structure": "COCCCOc1cc2c(cc1-c1ncc(C)s1)-c1c(cc(C(=O)O)c(=O)n1C1CC1)C(C)S2(=O)=O", "method": "antigen / visual reading / absorbance", "cells": "Primary human hepatocytes", "value": ">0.5 µM"}
{"structure": "CN1CC(c2ccn[nH]2)Cn2nc3c(c2C1=O)CN(C(=O)Nc1ccc(F)c(C#N)c1)CC3", "method": "fluorescence", "cells": "HepG2.2.15", "value": "93 µM"}
{"structure": "COc1ccc([C@H](C)NC(=O)c2c3n(c(=O)n2-c2ccc(OC4CC4)cc2)C[C@@H](C)N(C(=O)c2ccc(Br)c(Cl)c2)C3)cc1", "method": "PCR", "cells": "HepG2.117", "value": "0.5–5 µM"}
{"structure": "C[C@@H]1Cc2nn3c(c2CN1C(=O)Nc1ccc(F)c(C#N)c1)C(=O)N(C)C[C@@H](c1ccon1)C3", "method": "fluorescence", "cells": "HepG2.2.15", "value": "240 µM"}
{"structure": "Cn1nc2cc(NS(=O)(=O)NCC3CC3)ccc2c1C(=O)Nc1ccc(F)c(Cl)c1", "method": "PCR", "cells": "HepAD38", "value": "100–1000 µM"}
{"structure": "CC1=C(C(=O)O)C(c2ccccc2Cl)N=C(c2ccccn2)N1", "cells": "HepG2.2.15", "value": ">100 µM"}
{"structure": "Cn1nc2cc(NS(=O)(=O)c3cnn(-c4ccc(F)nc4)c3)ccc2c1C(=O)Nc1ccc(F)c(Cl)c1", "method": "PCR", "cells": "HepAD38", "value": "100–1000 µM"}
{"structure": "COC(=O)C1=C(C)NC(c2ccccn2)=NC1c1ccccc1F", "cells": "HepG2.2.15", "value": "20 µM"}
{"structure": "CNC(=O)c1ccc(-n2c(=O)c3c(n4ncc(Cc5ccsc5)c24)CN(C(=O)c2ccc(Br)c(Cl)c2)CC3)cc1", "method": "luminescence", "cells": "HepG2.117", "value": "≤0.05 µM"}
{"structure": "O=C(c1ccc(Br)c(Cl)c1)N1CCn2c(c3n(c2=O)C[C@@H](O)CN(Cc2ccccc2)C3=O)C1", "method": "PCR", "cells": "HepG2.117", "value": "0.5–5 µM"}
{"structure": "O=C1NNC(=O)c2c(ncn2[C@@H]2O[C@H](CO)[C@@H](O)[C@H]2O)N1", "method": "antigen", "cells": "2.2.15", "value": ">30 µM"}
{"structure": "Cc1c(C(=O)N2CCn3c(c(C(=O)NCC4=C(F)C=CCC4)n(-c4ccc(OC5CC5)cc4)c3=O)C2)ccc(Br)c1Cl", "method": "PCR", "cells": "HepG2.117", "value": "0.5–5 µM"}
{"structure": "CNCc1ccc(-c2ccc3ncnc(Nc4ccc(N5CCOCC5)cc4)c3c2)o1", "method": "replicon", "cells": "HUH 9B", "value": "5–25 µM"}
{"structure": "Cc1nnc(-c2ccc(-n3c(=O)c4c(n5ncc(Cc6ccccc6)c35)CN(C(=O)c3ccc(Br)c(Cl)c3)CC4)cc2)n1C", "method": "luminescence", "cells": "HepG2.117", "value": "≤0.05 µM"}
{"structure": "C=C1[C@H](CO)[C@@H](O)C[C@@H]1n1cnc2c(=O)[nH]c(N)nc21", "method": "ELISA / antigen", "cells": "HepG2-NTCP", "strain or isolate": "Genotype D", "value": ">0.1 µM"}
{"structure": "Cc1cccnc1-c1ccccc1CNC(=O)c1c2n(c(=O)n1-c1ccc(OC3CC3)cc1)CCN(C(=O)c1ccc(Br)c(Cl)c1)C2", "method": "PCR", "cells": "HepG2.2.15", "value": "0.5–5 µM"}
{"structure": "COC(=O)C1=C(C)NC(c2ncccc2C)=N[C@H]1c1ccc(F)cc1Cl", "cells": "HepG2.2.15", "value": "0.8 µM"}
{"structure": "O=C(NC1CCC2(CC1)CCN(c1nc3cc(Cl)ccc3o1)CC2)c1ccnc(S(=O)(=O)C2CC2)c1", "method": "antigen / luminescence", "cells": "Primary human hepatocytes (PHH)", "value": "5.583 µM"}
{"structure": "CCNC(=O)C(=O)N1CCC2(NS(=O)(=O)c3cn(C)c(C(=O)Nc4cc(F)c(F)c(F)c4)c3F)CC2C1", "method": "PCR", "cells": "HepAD38 cells", "value": "<0.1 µM"}
{"structure": "CC1Cc2c(n3ncc(Cc4ccccc4)c3n(-c3ccc(-n4nnnc4C(F)(F)F)cc3)c2=O)CN1C(=O)c1ccc(Br)c(C(F)(F)F)c1", "method": "luminescence", "cells": "HepG2.117", "value": "0.05–0.5 µM"}
{"structure": "c1nc(Nc2ccc(N3CCOCC3)cc2)c2cc(-c3ccc(C4OCCO4)o3)ccc2n1", "method": "replicon", "cells": "HUH 9B", "value": "1–5 µM"}
{"structure": "CC(C)Oc1ccc(-n2c(-c3nnc(Cc4ccccc4)o3)c3n(c2=O)CCN(C(=O)c2ccc(Br)c(Cl)c2)C3)cc1", "method": "PCR", "cells": "HepG2.117", "value": ">5 µM"}
{"structure": "O=C(Nc1ccc(-c2nc3ccc(F)c(F)c3o2)cc1)C1CCOC1", "method": "antigen / luminescence", "cells": "Primary human hepatocytes (PHH)", "value": "2.06 µg/mL"}
{"structure": "CCNC(=O)C(=O)N1CCC(NS(=O)(=O)c2cn(C)c(C(=O)Nc3cc(F)c(F)c(F)c3)c2Cl)CC1", "method": "PCR", "cells": "HepAD38 cells", "value": "<0.1 µM"}
{"structure": "C[C@@H]1Cc2nn3c(c2CN1C(=O)Nc1ccc(F)c(C#N)c1)C(=O)N(C)C[C@H](c1ccon1)C3", "method": "fluorescence", "cells": "HepG2.2.15", "value": "27 µM"}
{"structure": "COCCCOc1cc2c(cc1COC)-c1c(cc(C(=O)O)c(=O)n1C1CC1)C(C)S2(=O)=O", "method": "antigen / visual reading / absorbance", "cells": "Primary human hepatocytes", "value": ">0.5 µM"}
{"structure": "Cn1nc2cc(NS(=O)(=O)NCC(=O)O)ccc2c1C(=O)Nc1ccc(F)c(Cl)c1", "method": "PCR", "cells": "HepAD38", "value": ">1000 µM"}
{"structure": "O=C(Nc1ccc(F)c(C(F)(F)F)n1)N1CCc2nn3c(c2C1)C(F)(F)CC[C@H](O)C3", "method": "fluorescence", "cells": "HepG2.2.15", "value": "0.037 µM"}
{"structure": "CC(=O)Nc1ccc(-c2ccc3ncnc(Nc4ccc(N5CCOCC5)cc4)c3c2)cc1", "method": "replicon", "cells": "HUH 9B", "value": "<1 µM"}
{"structure": "O=C(NCc1cccc2[nH]cnc12)c1c2n(c(=O)n1-c1ccc(OCC(F)(F)F)cc1)CCN(C(=O)c1ccc(Br)c(Cl)c1)C2", "method": "PCR", "cells": "HepG2.117", "value": "0.5–5 µM"}
{"structure": "CCNC(=O)C(=O)N1CCC(NS(=O)(=O)c2cn(C)c(C(=O)Nc3cc(F)c(F)c(F)c3)c2F)C(C)(C)C1", "method": "PCR", "cells": "HepAD38 cells", "value": "<0.1 µM"}
{"structure": "C[C@@H]1Cc2nn3c(c2CN1C(=O)Nc1ccc(F)c(C#N)c1)C(=O)N(C)C[C@@H](c1ccno1)C3", "method": "fluorescence", "cells": "HepG2.2.15", "value": "150 µM"}
{"structure": "Cc1cnn(-c2ccc(-n3c(=O)c4c(n5ncc(CC(C)C)c35)CN(C(=O)c3ccc(Br)c(C(F)(F)F)c3)[C@H](C)C4)cc2)c1", "method": "luminescence", "cells": "HepG2.117", "value": "≤0.05 µM"}
{"structure": "COCCCOc1cc2c(cc1NC(C)=O)-c1c(cc(C(=O)O)c(=O)n1C1CC1)C(C)S2(=O)=O", "method": "antigen / visual reading / absorbance", "cells": "Primary human hepatocytes", "value": ">0.5 µM"}
{"structure": "C[C@@H]1Cc2nn3c(c2CN1C(=O)Nc1ccc(F)c(C(F)(F)F)c1)C(=O)N(C)C[C@H](c1ccn[nH]1)C3", "method": "fluorescence", "cells": "HepG2.2.15", "value": "20 µM"}
{"structure": "CNC(=O)C(=O)N1CC[C@@H](NS(=O)(=O)c2cn(C)c(C(=O)Nc3ccc(F)c(Cl)c3)c2F)C1", "method": "PCR", "cells": "HepAD38 cells", "value": "<0.1 µM"}
{"structure": "COC(=O)C1=C(COCCN)NC(c2ccccn2)=NC1c1ccccc1Cl", "cells": "HepG2.2.15", "value": ">100 µM"}
{"structure": "FC(F)(F)c1cc(N2CCOCC2)ccc1Nc1ncnc2ccc(I)cc12", "method": "replicon", "cells": "HUH 9B", "value": "<1 µM"}
{"structure": "N#CC[C@@]1(O)CCC(F)(F)c2c3c(nn2C1)CCN(C(=O)NC1=CC=NC(C(F)F)C1F)C3", "method": "fluorescence", "cells": "HepG2.2.15", "value": "0.333 µM"}
{"structure": "COCCCOc1cc2c(cc1-c1nccs1)-c1c(cc(C(=O)O)c(=O)n1C1CC1)C(C)S2(=O)=O", "method": "antigen / visual reading / absorbance", "cells": "Primary human hepatocytes", "value": "0.05–0.1 µM"}
{"structure": "C=CCn1cc(S(=O)(=O)N[C@@H]2CCN(C(=O)C(=O)NC)C2)c(F)c1C(=O)Nc1ccc(F)c(F)c1", "method": "PCR", "cells": "HepAD38 cells", "value": "<0.1 µM"}
{"structure": "COCCCOc1cc2c(cc1Br)-c1c(cc(C(=O)O)c(=O)n1C1CC1)C(C)S2(=O)=O", "method": "antigen / visual reading / absorbance", "cells": "Primary human hepatocytes", "value": "0.05–0.1 µM"}
{"structure": "CNOCc1ccc(-n2c(=O)c3c(n4ncc(CC5CCCC5)c24)CN(C(=O)c2ccc(Br)c(Cl)c2)CC3)cc1", "method": "luminescence", "cells": "HepG2.117", "value": "≤0.05 µM"}
{"structure": "COCCCOc1cc2c(cc1C#N)-c1c(cc(C(=O)O)c(=O)n1C1CC1)C(C)S2(=O)=O", "method": "antigen / visual reading / absorbance", "cells": "Primary human hepatocytes", "value": "0.1–0.5 µM"}
{"structure": "CC1=C(C(=O)NC2CC2)C(c2ccccc2Cl)N=C(c2ccccn2)N1", "cells": "HepG2.2.15", "value": ">100 µM"}
{"structure": "CCNC(=O)C(=O)N1CCN(S(=O)(=O)c2cn(C)c(C(=O)Nc3cc(F)c(F)c(F)c3)c2F)CC1", "method": "PCR", "cells": "HepAD38 cells", "value": "0.3–1 µM"}
{"structure": "CNC(=O)c1ccc2ncnc(Nc3ccc(N4CCOCC4)cc3)c2c1", "method": "replicon", "cells": "HUH 9B", "value": "1–5 µM"}
{"structure": "COC(=O)C1=C(C)NC(c2ccccn2)=NC1c1ccccc1OC", "cells": "HepG2.2.15", "value": "20 µM"}